A mixed list of measured activities; the numbers were collected in NIAID ChemDB.

Common to all: tests in culture; organism: Respiratory syncytial virus; read-out: EC50

Lines come from different laboratories, so protocols vary.

{"structure": "CC1(C)[C@@H](CO)CC[C@@]1(C)Cn1nnc2c(N)ncnc21", "cells": "HeLa", "read by": "cytopathic effect", "result": ">400 µg/mL"}
{"structure": "Cc1ccc(O)c(Cn2c(NC3CCN(CCCS(N)(=O)=O)CC3)nc3c(C)cccc32)n1", "cells": "HeLa", "read by": "cytopathic effect", "result": "0.013 µM"}
{"structure": "CCOc1ncn(-c2ccc(NC(=S)Nc3ncccn3)cc2)n1", "strain": "LONG", "cells": "HeLa", "read by": "cytopathic effect", "result": ">4 µg/mL"}
{"structure": "Cc1ccc(O)c(Cn2c(NC3CCN(CC(O)CCn4cnnc4)CC3)nc3c(C)cccc32)n1", "cells": "HeLa", "read by": "cytopathic effect", "result": "0.398 µM"}
{"structure": "O=C(Nc1ccc(NC(=S)Nc2ccc(C(F)(F)F)c(Cl)c2)cc1)c1cscn1", "cells": "HFF", "result": ">10 µg/mL"}
{"structure": "CC1(C)[C@@H](CO)CC[C@@]1(C)Cn1cnc2c(Cl)ncnc21", "cells": "HeLa", "read by": "cytopathic effect", "result": ">400 µg/mL"}
{"structure": "CCC(=O)Nc1ccc(NC(=S)Nc2cc(Cl)c(OC)cc2OC)cc1", "cells": "HFF", "result": ">10 µg/mL"}
{"structure": "O=c1[nH]cnc2c1ncn2C1C[C@H](CO)[C@@H](CO)C1", "cells": "HeLa", "result": ">100 µg/mL"}
{"structure": "Nn1c(-c2cn(-c3ccccc3)nc2-c2ccccc2)n[nH]c1=S", "cells": "HeLa", "read by": "cytopathic effect", "result": ">16 µg/mL"}
{"structure": "OC[C@H]1O[C@@H](c2cc(/C=C/Br)c(F)cc2F)C[C@@H]1O", "cells": "HeLa", "read by": "cytopathic effect", "result": ">80 µg/mL"}
{"structure": "CCc1nc(-n2c(C)nc3ccc(Br)cc3c2=O)nc(N)c1-c1ccc(Cl)cc1", "cells": "HeLa", "read by": "cytopathic effect", "result": ">16 µg/mL"}
{"structure": "CC(C)Nc1ncnc2c1ncn2C1C[C@H](CO)[C@@H](CO)C1", "cells": "HeLa", "result": ">100 µg/mL"}
{"structure": "OC[C@H]1O[C@H](c2cc(Cl)c(F)cc2F)C[C@@H]1O", "cells": "HeLa", "read by": "cytopathic effect", "result": ">400 µg/mL"}
{"structure": "S=c1[nH]n2c(-c3cn(-c4ccccc4)nc3-c3ccccc3)nnc2s1", "cells": "HeLa", "read by": "cytopathic effect", "result": ">80 µg/mL"}
{"structure": "NC(=O)CCN(CCC(N)=O)S(=O)(=O)c1cccc(Nc2nc(Nc3cccc(S(=O)(=O)N(CCC(N)=O)CCC(N)=O)c3)nc(Nc3ccc(-c4ccc(Nc5nc(Nc6cccc(S(=O)(=O)N(CCC(N)=O)CCC(N)=O)c6)nc(Nc6cccc(S(=O)(=O)N(CCC(N)=O)CCC(N)=O)c6)n5)cc4S(=O)(=O)O)c(S(=O)(=O)O)c3)n2)c1", "strain": "71050/TYPE A", "cells": "HEP-2", "read by": "cytopathic effect", "result": "0.25 µg/mL"}
{"structure": "CCOc1cc(O)c(C(=O)/C=C/c2ccc(OC)cc2)c(OC)c1", "cells": "HeLa", "read by": "cytopathic effect", "result": ">3 µg/mL"}
{"structure": "CC1(CO)CCC(Cn2cnc3c(=O)[nH]cnc32)C1(C)C", "cells": "HeLa", "read by": "cytopathic effect", "result": ">100 µg/mL"}
{"structure": "COc1ccc(OC)c(/C(C)=N/NC(=O)c2ccncc2)c1", "cells": "HeLa cells", "read by": "MTT", "result": ">4 µg/mL"}
{"structure": "NC1=CC(c2ccccc2)=Nn2c(nnc2-c2cn(-c3ccccc3)nc2-c2ccccc2)S1", "cells": "HeLa", "read by": "cytopathic effect", "result": ">16 µg/mL"}
{"structure": "CC1(C)[C@@H](CCO)C[C@H]1n1nnc2c(N)ncnc21", "cells": "HeLa", "read by": "cytopathic effect", "result": ">400 µg/mL"}
{"structure": "CCCOc1ncn(-c2ccc(NC(=S)Nc3cccc(O)c3)cc2)n1", "strain": "LONG", "cells": "HeLa", "read by": "cytopathic effect", "result": "40 µg/mL"}
{"structure": "COc1cc(Cc2cnc(-n3c(C)nc4ccc(Br)cc4c3=O)nc2N)cc(OC)c1OC", "cells": "HeLa", "read by": "cytopathic effect", "result": ">80 µg/mL"}
{"structure": "Cc1cc(NCCCCCCCCNc2cc(C)nc3cc(N(C)C)ccc23)c2ccc(N(C)C)cc2n1", "strain": "LONG", "cells": "HeLa", "read by": "cytopathic effect", "result": ">500 µg/mL"}
{"structure": "COc1ccc2c(c1)CSSC2", "strain": "LONG", "cells": "HeLa", "read by": "cytopathic effect", "result": "9.7 µM"}
{"structure": "CCCCCCCCCCCCCCCCCCCCCCO", "cells": "VERO", "read by": "syncytia", "result": "<5 µg/mL"}
{"structure": "c1ccc2c(c1)CSSC2", "strain": "Clinical isolate NS-100 (A)", "cells": "HeLa", "read by": "cytopathic effect", "result": "8.9 µM"}
{"structure": "CCCOc1ncn(-c2ccc(NC(=S)Nc3ncccn3)cc2)n1", "strain": "LONG", "cells": "HeLa", "read by": "cytopathic effect", "result": "20 µg/mL"}
{"structure": "CC1(C)[C@@H](CCO)C[C@H]1n1nnc2c(Cl)nc(N)nc21", "cells": "HeLa", "read by": "cytopathic effect", "result": "400 µg/mL"}
{"structure": "Cc1ccc(O)c(Cn2c(NC3CCN(CCN4CC=CC4)CC3)nc3c(C)cccc32)n1", "cells": "HeLa", "read by": "cytopathic effect", "result": "0.04 µM"}
{"structure": "CCCOc1ncn(-c2ccc(NC(=S)NC34CC5CC(CC(C5)C3)C4)cc2)n1", "strain": "LONG", "cells": "HeLa", "read by": "cytopathic effect", "result": "1.6 µg/mL"}
{"structure": "CCC[C@]1(CC(=O)O)OCCc2c1[nH]c1c(C)ccc(C#N)c21", "cells": "VERO", "read by": "cytopathic effect", "result": ">80 µM"}
{"structure": "CCOC(=O)CN1CCC(Nc2nc3cc(C)cc(C)c3n2Cc2nc(C)ccc2O)CC1", "cells": "HeLa", "read by": "cytopathic effect", "result": "1.585 µM"}
{"structure": "CCC(NC(=S)Nc1ccc(NC(=O)c2cscn2)cc1)c1cc(C(F)(F)F)cc(C(F)(F)F)c1", "result": ">5 µM"}
{"structure": "Cc1nc2ccc(Br)cc2c(=O)n1-c1nnc(-c2cccc(Cl)c2Cl)c(N)n1", "cells": "HeLa", "read by": "cytopathic effect", "result": ">16 µg/mL"}
{"structure": "Nc1nc2ncn(O)c2c(=O)[nH]1", "strain": "LONG", "cells": "BHK", "read by": "ELISA", "result": "4.1 µg/mL"}
{"structure": "O=C(Nc1ccc(NC(=S)Nc2cc(C(F)(F)F)cc(C(F)(F)F)c2)cc1)c1ccco1", "cells": "HFF", "result": ">10 µg/mL"}
{"structure": "CC1(C)[C@@H](CO)CC[C@@]1(C)Cn1nnc2c(Cl)ncnc21", "cells": "HeLa", "read by": "cytopathic effect", "result": ">400 µg/mL"}
{"structure": "CC1(CO)CCC(Cc2nc3ncnc(N)c3[nH]2)C1(C)C", "cells": "HeLa", "read by": "cytopathic effect", "result": ">40 µg/mL"}
{"structure": "CCOc1ncn(-c2ccc(NC(=S)Nc3cccc(O)c3)cc2)n1", "strain": "LONG", "cells": "HeLa", "read by": "cytopathic effect", "result": "8 µg/mL"}
{"structure": "O=C(Nc1ccc(NC(=S)Nc2cc(C(F)(F)F)cc(C(F)(F)F)c2)cc1)c1cscn1", "cells": "HFF", "result": ">10 µg/mL"}
{"structure": "CC1(C)[C@@H](CCO)C[C@H]1n1cnc2c(N)nc(N)nc21", "cells": "HeLa", "read by": "cytopathic effect", "result": ">400 µg/mL"}
{"structure": "O=C(Nc1ccc(NC(=S)Nc2cc(C(F)(F)F)cc(C(F)(F)F)c2)cc1)c1cocn1", "cells": "HFF", "result": ">10 µg/mL"}
{"structure": "CNS(=O)(=O)CCCN1CCC(Nc2nc3c(C)cc(C)cc3n2Cc2nc(C)ccc2O)CC1", "cells": "HeLa", "read by": "cytopathic effect", "result": "0.016 µM"}
{"structure": "COc1cc(OC)c(NC(=S)Nc2cc(OC)c(NC(=O)c3ccco3)cc2OC)cc1Cl", "cells": "HFF", "result": ">10 µg/mL"}
{"structure": "OC[C@H]1CC(n2cnc3c(NC4CC4)ncnc32)C[C@@H]1CO", "cells": "HeLa", "result": ">100 µg/mL"}
{"structure": "O=C(NC1CC1)c1cc2c(s1)-c1ccccc1N(C(=O)c1ccc(NC(=O)c3ccccc3-c3ccccc3)cc1)CC2", "strain": "Clinical isolate SM61-48 (B)", "cells": "HeLa", "read by": "plaque count", "result": "0.29 µM"}
{"structure": "O=c1[nH]n2c(-c3cn(-c4ccccc4)nc3-c3ccccc3)nnc2s1", "cells": "HeLa", "read by": "cytopathic effect", "result": ">16 µg/mL"}
{"structure": "COC(=O)COCCN1CCC(Nc2nc3c(C)cccc3n2Cc2nc(C)ccc2O)CC1", "cells": "HeLa", "read by": "cytopathic effect", "result": "1.259 µM"}
{"structure": "COc1cc(OC)c(NC(=S)Nc2ccc(NC(=O)c3ccco3)cc2C(F)(F)F)cc1Cl", "cells": "HFF", "result": ">10 µg/mL"}
{"structure": "C1=CCC2(CC1)COC(c1ccco1)OC2", "strain": "LONG", "cells": "HeLa", "read by": "cytopathic effect", "result": ">500 µg/mL"}
{"structure": "O=C(Nn1c(-c2cn(-c3ccccc3)nc2-c2ccccc2)n[nH]c1=S)c1ccccc1", "cells": "HeLa", "read by": "cytopathic effect", "result": ">16 µg/mL"}
{"structure": "CCCCCCCCCCCCCCCCO[C@H]1N([C@H]2C[C@H](N=[N+]=[N-])[C@@H](CO)O2)C(=O)NC(=O)[C@]1(C)Br", "strain": "LONG", "cells": "HeLa", "read by": "cytopathic effect", "result": ">500 µg/mL"}
{"structure": "CCOC(=O)COCCN1CCC(Nc2nc3c(C)cccc3n2Cc2nc(C)ccc2O)CC1", "cells": "HeLa", "read by": "cytopathic effect", "result": "1.585 µM"}
{"structure": "CCOC(=O)C1=CSc2nnc(-c3cn(-c4ccccc4)nc3-c3ccccc3)n2N=C1N", "cells": "HeLa", "read by": "cytopathic effect", "result": ">16 µg/mL"}

For reference, 5 entries again:

| structure | strain | cells | read by | result |
|---|---|---|---|---|
| C1=CCC2(CC1)COC(c1ccco1)OC2 | LONG | HeLa | cytopathic effect | >500 µg/mL |
| CCCCCCCCCCCCCCCCO[C@H]1N([C@H]2C[C@H](N=[N+]=[N-])[C@@H](CO)O2)C(=O)NC(=O)[C@]1(C)Br | LONG | HeLa | cytopathic effect | >500 µg/mL |
| OC[C@H]1O[C@H](c2cc(Cl)c(F)cc2F)C[C@@H]1O | - | HeLa | cytopathic effect | >400 µg/mL |
| COc1ccc2c(c1)CSSC2 | LONG | HeLa | cytopathic effect | 9.7 µM |
| CCOC(=O)COCCN1CCC(Nc2nc3c(C)cccc3n2Cc2nc(C)ccc2O)CC1 | - | HeLa | cytopathic effect | 1.585 µM |

ECn is the concentration giving n% inhibition of infection, replication or growth. An empty or dashed field is not shown.